Measured data: PubChem BioAssay AID624099 (ICCB-Longwood, 2012)

Test: 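Human genes that papillomavirus E2 requires to repress the HPV18 LCR promoter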 (primary screen)
Cell system: human C33A cervical carcinoma cells (HPV-negative) stably expressing BPV1 E2 and an HPV18 LCR luciferase reporter
Reagents: siRNA pool against human genes, 40 nM
Time to read-out: 72 h
Measured: 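HPV18 LCR reporter light per well, converted to plate-wise z-scores that exclude control wells, and averaged over triplicate plates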
Scale: mean z-score and z-score: higher = stronger reporter signal, weaker E2 silencing
Active means: 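Hit if mean z-score reaches 2 and two or more of three replicate z-scores also reach 2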
Here is one part, drawn at random, of about 21,000 reagents tested. Of all reagents, 497 (2.4%) got an active call. 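Higher z means weaker E2 silencing; only reporter increases were scored, and knock-downs that hurt cell survival may mask genuine repressor factors.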 A number with no mark means an inactive call.

The opening 4 entries as a preview:
Target gene,mean z-score,"z-score, replicate A","z-score, replicate B","z-score, replicate C"
TMEM39B (GeneID 55116),-0.92,-0.9,-1.36,-0.49
MEX3A (GeneID 92312),-0.57,-0.63,-0.54,-0.56
FGF5 (GeneID 2250),-1.08,-1.2,-0.96,-1.08
CLDN18 (GeneID 51208),1.31,1.47,1.35,1.1

The list itself, repeating the preview:
Target gene,mean z-score,"z-score, replicate A","z-score, replicate B","z-score, replicate C"
TMEM39B (GeneID 55116),-0.92,-0.9,-1.36,-0.49
MEX3A (GeneID 92312),-0.57,-0.63,-0.54,-0.56
FGF5 (GeneID 2250),-1.08,-1.2,-0.96,-1.08
CLDN18 (GeneID 51208),1.31,1.47,1.35,1.1
LOC389085 (retired record) (GeneID 389085),-0.42,-0.63,-0.79,0.14
C11orf42 (GeneID 160298),-0.09,-0.24,-0.15,0.13
SLC27A3 (GeneID 11000),-0.26,-0.22,-0.13,-0.43
LILRA6 (GeneID 79168),1.55,1.73,1.23,1.67
THRSP (GeneID 7069),0.89,0.73,0.68,1.26
SDCBP2 (GeneID 27111),1.46,1.64,1.71,1.03
C2orf81 (GeneID 388963),0.26,0.69,-0.33,0.43
RNF31 (GeneID 55072),1.25,1.43,1.26,1.05
ANAPC1 (GeneID 64682),-0.06,0.05,-0.16,-0.07
ADAT3 (GeneID 113179),1.3,0.85,1.61,1.46
PES1 (GeneID 23481),-0.28,0,-0.32,-0.52
PPIL6 (GeneID 285755),0.85,0.93,0.89,0.73
LOC283583 (retired record) (GeneID 283583),0.71,1.15,0.37,0.62
HNRNPF (GeneID 3185),1.65,1.58,2.07,1.29
TTC5 (GeneID 91875),1.12,1.1,1.19,1.08
WDR17 (GeneID 116966),0.02,0.3,0.09,-0.32
PI4KA (GeneID 5297),-0.32,-0.82,0.05,-0.2
TECR (GeneID 9524),0.73,0.56,0.97,0.66
MLXIP (GeneID 22877),-0.01,-0.27,0.17,0.06
EHD2 (GeneID 30846),-0.08,-0.19,-0.01,-0.04
ALLC (GeneID 55821),-0.36,-0.36,-0.56,-0.15
TSPAN12 (GeneID 23554),-0.11,-0.49,0,0.15
PFAS (GeneID 5198),0.58,0.69,0.7,0.34
ADRB1 (GeneID 153),-0.24,-0.42,-0.18,-0.11
PAQR8 (GeneID 85315),0.51,0.4,0.51,0.61
ZNF345 (GeneID 25850),0.48,0.74,0.27,0.43
IRAG1 (GeneID 10335),-0.73,-1.11,-0.5,-0.57
HADH (GeneID 3033),-0.33,-0.7,-0.31,0.02
LOC389506 (retired record) (GeneID 389506),-1.01,-1.44,-1.01,-0.58
PEX19 (GeneID 5824),-0.67,-0.99,-0.59,-0.44
ADCY10P1 (GeneID 221442),-1.53,-1.33,-1.77,-1.5
PABPC1L2A (GeneID 340529),-0.44,-0.3,-0.68,-0.36
CTNND2 (GeneID 1501),0.23,0.36,-0.05,0.39
AKAP9 (GeneID 10142),-0.09,-0.37,0.09,0.02
FAM120AOS (GeneID 158293),0.7,0.94,0.45,0.7
